# Measured values taken from BindingDB's records for 17951059.
# Amino acid sequences for entries named in this document (tags omitted). Residues count along the entry.
# UniProt Q45894, 1-425: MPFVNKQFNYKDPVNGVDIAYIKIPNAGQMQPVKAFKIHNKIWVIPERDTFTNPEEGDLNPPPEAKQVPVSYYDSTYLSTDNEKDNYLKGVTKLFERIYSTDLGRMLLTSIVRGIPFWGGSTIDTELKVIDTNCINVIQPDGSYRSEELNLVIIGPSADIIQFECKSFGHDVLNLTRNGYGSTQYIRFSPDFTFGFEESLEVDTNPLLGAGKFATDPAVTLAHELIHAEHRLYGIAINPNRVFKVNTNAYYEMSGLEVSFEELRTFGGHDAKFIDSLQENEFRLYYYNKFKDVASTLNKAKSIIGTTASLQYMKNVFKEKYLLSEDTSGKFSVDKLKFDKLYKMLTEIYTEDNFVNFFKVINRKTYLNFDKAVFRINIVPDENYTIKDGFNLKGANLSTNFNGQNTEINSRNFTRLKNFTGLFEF
# pIC50: −log10 of the molar value.
# Target: Botulinum neurotoxin type A2 [1-425] (Clostridium botulinum, UniProt Q45894)
# Settings: pH 7.4
row,SMILES,pIC50
1,Cc1cc(Cl)ccc1/C=C/C(=O)NO,6.10
2,O=C(/C=C/c1ccc(Cl)cc1C(F)(F)F)NO,6.22
3,O=C(/C=C/c1ccc(Cl)cc1Br)NO,6.15
4,COc1cc(Cl)ccc1/C=C/C(=O)NO,5.05
5,O=C(/C=C/c1ccc(Cl)cc1[N+](=O)[O-])NO,5.70
6,O=C(/C=C/c1ccc(Cl)cc1)NO,4.82
